According to ChEMBL document CHEMBL1124753, “Hydroxyethylamine analogues of the p17/p24 substrate cleavage site are tight-binding inhibitors of HIV protease” (J Med Chem, 1990):

Target: Human immunodeficiency virus type 1 protease (Human immunodeficiency virus 1, UniProt Q72874)
Experiment: Inhibition of HIV protease at pH 6.4, 37 degree C
Summary of the method: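 Recombinant HIV protease expressed in E. coli; substrate Ac-Thr-Ile-Met-Gln-Arg-NH2 varied 0.5–10 mM. Inhibitor added in DMSO (final 1–3%), preincubated with enzyme 10 min before substrate started the reaction. Initial rates by HPLC and fluorometric assays. Ki from fitting initial velocities to the competitive inhibition equation; each is the average of three or more independent determinations.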

**Q.** With `CC[C@H](C)[C@H](NC(=O)[C@@H]1CCCN1C[C@H](O)[C@H](Cc1ccccc1)NC(=O)[C@H](CC(N)=O)NC(=O)[C@H](CC(C)C)NC(C)=O)C(=O)OC` as the compound, how does the Ki read?
**A.** Its Ki is 4.52 µM.
